Measured values from several laboratories, pooled; numbers as filed in NIAID ChemDB.

Common to all: growth or infection tests; organism: HIV-1; cells: HeLa; endpoint: EC50

ECn is the concentration giving n% inhibition of infection, replication or growth. Lines come from different laboratories, so protocols vary. An empty or dashed field is not shown.

smiles	strain or isolate	changes	method	conditions	result
Cc1cc(OC[C@H]2CNCCO2)ccc1NC(=O)COc1ccc(Cl)cc1C(=O)c1cc(C#N)cc(OC(F)F)c1		Y181C			0.0007 µM
O=c1[nH]cnc2c1ncn2[C@H]1CC[C@@H](CO)O1	RTMDR	RT	β-galactosidase		12.2 µM
CCCn1ncc(CCc2ccccc2)c1C1CCN(C[C@H]2CN([C@@H](C(=O)O)C3CCCCC3)C[C@@H]2c2ccccc2)CC1	BaL		β-galactosidase		<0.011 µM
C#C[C@]1(CO)O[C@@H](n2cc(I)c(=O)[nH]c2=O)C[C@@H]1O	HXB2		β-galactosidase		0.37 µM
Cc1ccc(NC(=O)CSc2nnc(C)n2-c2c(C)cc(C)c3ccccc23)c(Cl)c1		Y188L			0.089 µM
Nc1ccn([C@H]2C[C@H](O)[C@](CO)(CF)O2)c(=O)n1	RT-M41L/T215Y	RT-M41L T215Y	β-galactosidase		0.0035 µM
CCn1ncc(Cc2ccccc2)c1C1CCN(C[C@H]2CN([C@@H](C(=O)O)C3CCCCC3)C[C@@H]2c2ccccc2)CC1	BaL		β-galactosidase		<0.0069 µM
Cn1c2ccccc2c2c1cc(C#N)c(=O)n2-c1ccc([N+](=O)[O-])cc1	NNRTI-resistant	RT-Y188L	luciferase		0.0069 µM
O=C(O)[C@@H](C1CCCCC1)N1C[C@H](CN2CCC(c3[nH]ncc3Cc3ccccc3)CC2)[C@@H](c2ccccc2)C1	BaL		β-galactosidase		<0.1 µM
N#Cc1cc2[nH]c3ccccc3c2n(-c2ccc([N+](=O)[O-])cc2)c1=O	NNRTI-resistant	RT-K103N L100I	luciferase		0.577 µM
C#C[C@]1(CO)O[C@@H](n2cc(C)c(=O)[nH]c2=O)C[C@@H]1O	RT-M41L T69SSG T215Y	RT M41L T69SSG insertion T215Y	β-galactosidase		0.44 µM
CCn1nc(Cc2ccc(Oc3ccccc3)cc2)cc1C1CCN(C[C@H]2CN([C@@H](C(=O)O)C(C)(C)C)C[C@@H]2c2cccc(F)c2)CC1	BaL		β-galactosidase		<0.0037 µM
CCCCn1nc(Cc2ccccc2)cc1C1CCN(C[C@H]2CN([C@@H](C(=O)O)C3CCCCC3)C[C@@H]2c2ccccc2)CC1	BaL		β-galactosidase		<0.011 µM
CN(C)c1ccc(-n2c(SCC(=O)Nc3ccc(S(N)(=O)=O)cc3Cl)nnc2C(F)(F)F)c2ccccc12		Y188L			0.007 µM
CCCn1nc(Cc2ccccc2)cc1C1CCN(C[C@H]2CN([C@@H](C(=O)O)C3CCCCC3)C[C@@H]2c2ccccc2)CC1	BaL		β-galactosidase		<0.0012 µM
CCn1nc(Cc2ccc(F)cc2F)cc1C1CCN(C[C@H]2CN([C@@H](C(=O)O)C(C)C)C[C@@H]2c2cccc(F)c2)CC1	BaL		β-galactosidase		<0.1 µM
CCc1nnc(SCC(=O)Nc2ccc(C)cc2Br)n1-c1ccccc1					0.0001 µM
COC(=O)N[C@H](C(=O)N[C@@H](Cc1ccccc1)[C@@H](O)CN(Cc1ccc(-c2ccccn2)cc1)NC(=O)[C@@H](NC(=O)OC)C(C)(C)C)C(C)(C)C	Site-directed PR mutant 03	PR-L10I G48V L90M	β-galactosidase		0.00366 µM
Cc1ccc2cccnc2c1-n1c(C)nnc1SCC(=O)Nc1ccc(S(N)(=O)=O)cc1Cl		Y188L			0.389 µM
Cc1cc(S(N)(=O)=O)ccc1NC(=O)COc1ccc(Cl)cc1C(=O)c1cc(C#N)cc(C(=O)N2CCOCC2)c1		WTRVA			0.16 µM
CCCCOc1ccc(Cc2cc(C3CCN(C[C@H]4CN([C@@H](C(=O)O)C5CCCCC5)C[C@@H]4c4cccc(F)c4)CC3)n(CC)n2)cc1	BaL		β-galactosidase		<0.0004 µM
Cc1nnc(SCC(=O)Nc2ccc(S(N)(=O)=O)cc2Cl)n1-c1ccc(Cl)c2ccccc12		Y188L			0.068 µM
CCn1nc(Cc2ccc(O)cc2)cc1C1CCN(C[C@H]2CN([C@@H](C(=O)O)C3CCCCC3)C[C@@H]2c2cccc(F)c2)CC1	BaL		β-galactosidase		<0.011 µM
COC(=O)c1cc(C#N)cc(C(=O)c2cc(Cl)ccc2OCC(=O)Nc2ccc(S(N)(=O)=O)cc2C)c1		K103N			0.0014 µM
CCCCOc1ccc(Cc2cc(C3CCN(C[C@H]4CN([C@@H](C(=O)O)C(C)(C)C)C[C@@H]4c4cccc(F)c4)CC3)n(CC)n2)cc1	BaL		β-galactosidase	50% human serum	<0.033 µM
Cc1cc(S(N)(=O)=O)ccc1NC(=O)COc1ccc(Cl)cc1C(=O)c1cc(N)cc(C#N)c1		K103N			0.01 µM
NS(=O)(=O)c1ccc(NC(=O)CSc2nnc(C(F)(F)F)n2-c2ccc(Cl)c3ccccc23)c(Cl)c1		Y188L			0.041 µM

Again, the opening 4 rows:

smiles | strain or isolate | changes | method | conditions | result
Cc1cc(OC[C@H]2CNCCO2)ccc1NC(=O)COc1ccc(Cl)cc1C(=O)c1cc(C#N)cc(OC(F)F)c1 |  | Y181C |  |  | 0.0007 µM
O=c1[nH]cnc2c1ncn2[C@H]1CC[C@@H](CO)O1 | RTMDR | RT | β-galactosidase |  | 12.2 µM
CCCn1ncc(CCc2ccccc2)c1C1CCN(C[C@H]2CN([C@@H](C(=O)O)C3CCCCC3)C[C@@H]2c2ccccc2)CC1 | BaL |  | β-galactosidase |  | <0.011 µM
C#C[C@]1(CO)O[C@@H](n2cc(I)c(=O)[nH]c2=O)C[C@@H]1O | HXB2 |  | β-galactosidase |  | 0.37 µM